# Biological target: Human immunodeficiency virus type 1 protease (Human immunodeficiency virus 1, UniProt Q72874)
# Assay: Binding affinity against HIV-1 protease
row,Ki [nM],Compound
1,3.2,O=c1c2c(oc(O)c1C(c1cccc(NS(=O)(=O)c3ccccc3)c1)C1CC1)CCCCCC2 (stereo not drawn)
2,3.2,O=c1c2c(oc(O)c1[C@H](c1cccc(NS(=O)(=O)c3ccccc3)c1)C1CC1)CCCCCC2
3,7.6,O=c1c2c(oc(O)c1[C@@H](c1cccc(NS(=O)(=O)c3ccccc3)c1)C1CC1)CCCCCC2
